Assay results published in EP0032748B1, “Thiophene derivatives” (UBE INDUSTRIES, LTD., priority 1980, dated 1981).

Tested on: Pellicularia sasakii
Settings: Table 4; spray liquid 65 ppm; paddy rice sheath blight; lesion length 4 days after inoculation

Ammonium iron methanearsonate
Control value: 90%
